# Target: CMTM3-CKLF-like MARVEL transmembrane domain containing 3 (CMTM3), transcript variant 4 (human) (UniProt Q96MX0)
# Assay: ProtoArray, GST-treated control array
substance,measurement,value
3× Flag-3×MBT (designed binder),GST Average SNR,0.469
